Compound potency records, mixed from different reports. Data source: NIAID ChemDB in PubChem.

Common to all: tests in culture; species: HIV-1; endpoint: inhibition

Neighbouring rows are from separate reports. Percent inhibition refers to the dose given; in toxicity tests it is the harm to the cells. An empty or dashed field is not shown.

structure,strain,cells,dose,read by,value
O=P(O)(O)OP(=O)(O)OP(=O)(O)OP(=O)(O)OP(=O)(O)OP(=O)(O)OP(=O)(O)OP(=O)(O)OP(=O)(O)OP(=O)(O)OP(=O)(O)OP(=O)(O)OP(=O)(O)OP(=O)(O)OP(=O)(O)O,IIIB,H9,100 µg/mL,p24,30%
O=C1OC(C2OC(=O)c3cc(O)c(O)c(O)c3-c3c(O)c(O)c4oc(=O)c5c(c(O)c(O)c6oc(=O)c3c4c65)-c3c(cc(O)c(O)c3O)C(=O)OCC2O)C2OC(=O)c3c(c(O)c(O)c(O)c3C2O)-c2c1cc(O)c(O)c2O,IIIB,H9,5 µM,p24,71%
c1cc(CNCCCNC2CCCCC2)cc(CNc2nc(N3CCNCC3)nc3nc[nH]c23)c1,IIIB,TZM-bl,10 µM,luciferase,2%
COC(=O)c1c(C(=O)OC)c(C)n(-c2ccccc2)c1C,IIIB,PBL,10 µM,p24 / ELISA,0%
C[C@@H]1CN(C(=O)c2ccccc2)CCN1C(=O)C(=O)c1c[nH]c2ccc(F)cc12,,HeLa + HELA CD4+/CCR5,10 µM,luciferase,69%
O=C(Cc1ccccc1)Nn1c(-c2ccccc2)nc2ccccc2c1=O,RF,CEM + CEM-SS,20 µM,cytopathic effect / XTT,18%
CCOC(=O)c1c(C)c(C(=O)OCC)n(C)c1C,IIIB,PBL,10 µM,p24 / ELISA,0%
O=C(C(=O)N1CCN(C(=O)c2occ(Cl)c2Cl)CC1)c1c[nH]c2c(F)ccc(F)c12,,HeLa + HELA CD4+/CCR5,10 µM,luciferase,>98%
Cc1ccc(C)c2c1NC(=O)C2CC(=O)N[C@@H](Cc1ccccc1)C(=O)N(C)c1cccc(Cl)c1,NL4-3,,20 µM,fluorescence,99%
COC(=O)C1=C(C)N(c2ccc(C(=O)O)cc2)C(C)=C(C(=O)OC)C1c1ccc(N(C)C)cc1,NL4-3,HEK293T + MT-2,100 µM,p24 / ELISA,47.5%
O=C(O)C1=C[C@@H](OC(=O)c2cc(O)c(O)c(O)c2)[C@@H](OC(=O)c2cc(O)c(O)c(O)c2)[C@H](OC(=O)c2cc(O)c(O)c(O)c2)C1,IIIB,H9,30 µM,p24,73%
COC(=O)C1=C(C)N(c2ccc(C(=O)O)cc2)C(C)=C(C(=O)OC)C1c1ccccc1,NL4-3,HEK293T + MT-2,100 µM,p24 / ELISA,27%
NS(=O)(=O)c1ccc(NC(=O)c2ccccc2SSc2ccccc2C(=O)Nc2ccc(S(N)(=O)=O)cc2)cc1,RF,CEM + CEM-SS,100 µM,p24,85%
C/C(CC(=O)Nc1ccc(C(N)=O)cc1)=N\NC(=O)COc1ccc2ccccc2c1,IIIB,MT-2,10 µM,p24,23%
CCCCCC1CN(C(=O)C(=O)c2c[nH]c3c(C(=O)OC)cccc23)CCN1C(=O)c1ccccc1,,HeLa + HELA CD4+/CCR5,10 µM,luciferase,59%
CN(C(=O)[C@H](Cc1ccccc1)NC(=O)CN1C(=O)NC2(CCCc3ccccc32)C1=O)c1ccccc1,NL4-3,,20 µM,fluorescence,32%
C=CSC(NC(=O)[C@H](Cc1ccccc1)NS(=O)(=O)N1CCOCC1)C(=O)N[C@@H](CC1CCCCC1)[C@@H](O)C[C@H](C(=O)NCCCC)C(C)C,IIIB,MT-2,13 µM,cytopathic effect / XTT,0%
C[C@H]1[C@H](O)[C@@H](C)/C=C/C=C/C=C/C=C/C=C/C=C/C=C/[C@H](O[C@@H]2O[C@H](C)[C@@H](O)[C@H](N)[C@@H]2O)C[C@@H]2O[C@](O)(C[C@@H](O)C[C@@H](O)CC[C@H](O)[C@@H](O)C[C@@H](O)CC(=O)O[C@H]1C)C[C@H](O)[C@H]2C(=O)O,93BR019 CLADE BF X4 (SI),PBMC,2.4 µM,p24 / RT activity,90%
Cc1cc(C)c(S(=O)(=O)OCC2OC3OC4C(CO)OC(OC5C(CO)OC(OC6C(CO)OC(OC7C(CO)OC(OC8C(CO)OC(OC9C(C[n+]%10ccccc%10)OC(OC2C(O)C3O)C(O)C9O)C(O)C8O)C(O)C7O)C(O)C6O)C(O)C5O)C(O)C4O)c(C)c1,KK-1(AIDS),MT-4,62.5 µg/mL,cytopathic effect / trypan blue,100%
Nc1cccc(C(=O)N2CCN(C(=O)C(=O)c3c[nH]c4cccc(F)c34)CC2)c1,,HeLa + HELA CD4+/CCR5,10 µM,luciferase,>98%
Cc1ccc(N(C)C(=O)[C@H](Cc2ccccc2)NC(=O)CN2C(=O)NC3(CCCCC3)C2=O)cc1,NL4-3,,20 µM,fluorescence,92%
O=C(C(=O)N1CCN(C(=O)c2ccco2)CC1)c1c[nH]c2cccc(F)c12,,HeLa + HELA CD4+/CCR5,10 µM,luciferase,>98%
Cc1cn([C@H]2C[C@H](N=[N+]=[N-])[C@@H]([C@H](C)O)O2)c(=O)[nH]c1=O,IIIB,MT-4,200 µg/mL,cytopathic effect / trypan blue,0%
CN(C(=O)[C@H](Cc1ccccc1)NC(=O)Cc1cccc2ccccc12)c1ccccc1,NL4-3,,2 µM,fluorescence,66%
COC(=O)c1cn2c(ccc3ccccc32)c1C(=O)OC,IIIB,PBL,10 µM,p24 / ELISA,5%
CCOc1ccccc1N(CC(=O)Nc1ccc(S(=O)(=O)Nc2cccc(C(F)(F)F)c2)cc1)S(C)(=O)=O,IIIB,MT-2,10 µM,p24,57.2%
Cc1ccc(N(C)C(=O)[C@H](Cc2ccccc2)NC(=O)Cc2cccc3ccccc23)cc1,NL4-3,,2 µM,fluorescence,96%
c1ccc2c(-c3ccc(-c4ccc(-c5ccc(-c6cccc7ccccc67)s5)c5ccccc45)s3)cccc2c1,IIIB,C8166,8 µM,p24 / ELISA / antigen,68.62%
Cc1cn([C@H]2C[C@H](N=[N+]=[N-])[C@@H]([C@@H](C)O)O2)c(=O)[nH]c1=O,IIIB,MT-4,200 µg/mL,cytopathic effect / trypan blue,0%
COc1ccc(-c2cc(C(=O)Nc3ccc(S(=O)(=O)Nc4cc(C)nc(C)n4)cc3)c3ccccc3n2)cc1,IIIB,MT-2,10 µM,p24,18.2%
CCCCCCCCCCCCCCCC(=O)NCC1OC(n2cnc3c(N)ncnc32)C(OP(=O)(O)OCC2OC(n3cnc4c(N)ncnc43)C(OP(=O)(O)OCCOCn3cnc4c(N)ncnc43)C2O)C1O,IIIB,SupT1 + Sup-T1,100 µM,syncytia,88.5%
O=C1OCC2OC(O)C(O)C(O)C2OC(=O)c2cc(O)c(O)c(O)c2-c2c(O)c(O)c3oc(=O)c4c(c(O)c(O)c5oc(=O)c2c3c54)-c2c1cc(O)c(O)c2O,IIIB,H9,6 µM,p24,65%
C[C@@H]1CN(C(=O)c2ccccc2)CCN1C(=O)C(=O)c1c[nH]c2c(C(=O)O)ccc(F)c12,,HeLa + HELA CD4+/CCR5,10 µM,luciferase,>98%
CCOC(=O)C1=C(C)N(c2ccc(C(=O)O)cc2)C(C)=C(C(=O)OCC)C1c1ccco1,NL4-3,HEK293T + MT-2,100 µM,p24 / ELISA,80.5%
O=C(O)C[C@@H]1C(=O)O[C@H]2[C@@H]3OC(=O)c4cc(O)c(O)c(O)c4-c4c(cc(O)c(O)c4O)C(=O)OC[C@H]2O[C@@H](OC(=O)c2cc(O)c(O)c(O)c2)[C@@H]3OC(=O)c2cc(O)c(O)c3c2[C@H]1[C@H](O)C(=O)O3,IIIB,H9,20 µM,p24,92%
NC(=O)NO,,H9,200 µM,p24,68.4%
NCC1OC(n2cnc3c(N)ncnc32)C(OP(=O)(O)OCC2OC(n3cnc4c(N)ncnc43)C(OP(=O)(O)OCC3OC(n4cnc5c(N)ncnc54)C(O)C3O)C2O)C1O,IIIB,SupT1 + Sup-T1,100 µM,syncytia,23.1%
Cc1ccc(N(C)C(=O)[C@H](Cc2ccccc2)NC(=O)CN2C(=O)NC3(CCCc4ccccc43)C2=O)cc1,NL4-3,,20 µM,fluorescence,41%
CCOC(=O)c1[nH]c(C)c(C(=O)O)c1C,IIIB,PBL,10 µM,p24 / ELISA,0%
O=C(C(=O)N1CCN(C(=O)c2ccc(Cl)cc2S)CC1)c1c[nH]c2cccc(Cl)c12,,HeLa + HELA CD4+/CCR5,10 µM,luciferase,>98%
CCn1c(C)c(C(=O)OC)c(C(=O)OC)c1CC(C)C,IIIB,PBL,10 µM,p24 / ELISA,0%
Cc1cc(NC(=O)C(=O)NCCN2CCN(C(=O)c3ccccc3F)CC2)ccc1Br,IIIB,MT-2,10 µM,p24,44.9%

A second listing of 5 rows from above:

structure	strain	cells	dose	read by	value
C[C@@H]1CN(C(=O)c2ccccc2)CCN1C(=O)C(=O)c1c[nH]c2ccc(F)cc12		HeLa + HELA CD4+/CCR5	10 µM	luciferase	69%
O=C1OC(C2OC(=O)c3cc(O)c(O)c(O)c3-c3c(O)c(O)c4oc(=O)c5c(c(O)c(O)c6oc(=O)c3c4c65)-c3c(cc(O)c(O)c3O)C(=O)OCC2O)C2OC(=O)c3c(c(O)c(O)c(O)c3C2O)-c2c1cc(O)c(O)c2O	IIIB	H9	5 µM	p24	71%
c1ccc2c(-c3ccc(-c4ccc(-c5ccc(-c6cccc7ccccc67)s5)c5ccccc45)s3)cccc2c1	IIIB	C8166	8 µM	p24 / ELISA / antigen	68.62%
Cc1ccc(N(C)C(=O)[C@H](Cc2ccccc2)NC(=O)CN2C(=O)NC3(CCCCC3)C2=O)cc1	NL4-3		20 µM	fluorescence	92%
O=C(O)C1=C[C@@H](OC(=O)c2cc(O)c(O)c(O)c2)[C@@H](OC(=O)c2cc(O)c(O)c(O)c2)[C@H](OC(=O)c2cc(O)c(O)c(O)c2)C1	IIIB	H9	30 µM	p24	73%